Pooled drug test results. Numbers come from NIAID ChemDB, via PubChem.

All rows: tests in culture; organism: Haemophilus influenzae

Lines come from different laboratories, so protocols vary.

compound | read-out | strain or isolate | result
CC[C@H]1OC(=O)[C@H](C)[C@@H](O[C@H]2C[C@@](C)(OC)[C@@H](O)[C@H](C)O2)[C@H](C)[C@@H](O[C@H]2O[C@@H](C)C[C@@H](N(C)C)[C@@H]2O)[C@](C)(O)C[C@@H](C)C(=O)[C@H](C)[C@@H](O)[C@]1(C)O | MIC | 33929 (ampicillin-resistant) | 4 µg/mL
CC(=O)NC[C@H]1CN(c2ccc(-c3noc(C#N)n3)c(F)c2)C(=O)O1 | MIC | UC 30063 | >16 µg/mL
CC[C@H]1OC(=O)[C@H](C)C(=O)[C@H](C)[C@@H](O[C@@H]2O[C@H](C)C[C@H](N(C)C)[C@H]2O)[C@@]2(C)C[C@@H](C)C(=NC(C)=O)[C@H](C)[C@@H](OC/C(=N\OCc3cccc(N)n3)CO2)[C@]1(C)O | MIC | 33929 (ampicillin-resistant) | 4 µg/mL
CCNC(=O)[C@@H](NC(=O)Cc1ccccc1)[C@@H]1N[C@@H](C(=O)NCCNC(=O)[C@@H]2N[C@@H]([C@H](NC(=O)Cc3ccccc3)C(=O)NCC)SC2(C)C)C(C)(C)S1 | MIC50 | 434 strains | 0.25 µg/mL
CC[C@H]1OC(=O)[C@@](C)(F)C(=O)[C@H](C)[C@@H](O[C@@H]2O[C@H](C)C[C@H](N(C)C)[C@H]2O)[C@@]2(C)C[C@@H](C)C(=NC(C)=O)[C@H](C)[C@@H](OC/C(=N\OCc3ccc(-n4cccn4)nc3)CO2)[C@]1(C)O | MIC | 33929 (ampicillin-resistant) | 4 µg/mL
CC[C@H]1OC(=O)[C@H](C)C(=O)[C@H](C)[C@@H](O[C@@H]2O[C@H](C)C[C@H](N(C)C)[C@H]2O)[C@@]2(C)C[C@@H](C)C(=NC(C)=O)[C@H](C)C(OC/C(=N/OCc3ccccc3)CO2)[C@]1(C)O | MIC | 33929 (ampicillin-resistant) | >64 µg/mL
CC[C@H]1OC(=O)C[C@@H](O)[C@H](C)[C@@H](O[C@@H]2O[C@H](C)[C@@H](O)[C@H](N(C)C)[C@H]2O)C(C=O)C[C@@H](C)C(=O)/C=C/C(C)=C/[C@@H]1COC(=O)NCc1ccccc1 | MIC | 33929 (ampicillin-resistant) | 1 µg/mL
CC[C@H]1OC(=O)[C@H](C)C(=O)[C@H](C)[C@@H](O[C@@H]2O[C@H](C)C[C@H](N(C)C)[C@H]2O)[C@](C)(OC)C[C@@H](C)C(=O)[C@H](C)[C@H]2N(CCCCn3cnc(-c4cccnc4)c3)C(=O)O[C@]12C | MIC50 | 434 strains | 1 µg/mL
CC[C@H]1OC(=O)[C@@](C)(F)C(=O)[C@H](C)[C@@H](O[C@@H]2O[C@H](C)C[C@H](N(C)C)[C@H]2O)[C@@]2(C)C[C@@H](C)C(=NC(C)=O)[C@H](C)[C@@H](OC/C(=N\OCc3ccc4nc(N)sc4c3)CO2)[C@]1(C)O | MIC | 33929 (ampicillin-resistant) | 4 µg/mL
CC(=O)NC[C@H]1CN(c2ccc(-c3ccn(CCC#N)n3)c(F)c2)C(=O)O1 | MIC | UC 30063 | >64 µg/mL
CC[C@H]1OC(=O)C[C@@H](O)[C@H](C)[C@@H](O[C@@H]2O[C@H](C)[C@@H](O)[C@H](N(C)C)[C@H]2O)C(C=O)C[C@@H](C)C(=O)/C=C/C(C)=C/[C@@H]1COC(=O)Nc1ccc(F)cc1 | MIC | 33929 (ampicillin-resistant) | 1 µg/mL
COCC1=C(C(=O)O)N2C(=O)C(NC(=O)/C(=N/OC)c3csc(N)n3)C2SC1 | MIC90 | 434 strains | ≤0.06 µg/mL
C=CCn1cc(-c2ccc(N3C[C@H](CNC(C)=O)OC3=O)cc2F)cn1 | MIC | UC 30063 | >16 µg/mL
C=C1COC2[C@@H](C)C(=NC(C)=O)[C@H](C)C[C@@](C)(OC1)[C@H](O[C@@H]1O[C@H](C)C[C@H](N(C)C)[C@H]1O)[C@@H](C)C(=O)[C@@H](C)C(=O)O[C@H](CC)[C@@]2(C)O | MIC | 33929 (ampicillin-resistant) | >64 µg/mL
C=CC(=O)NC[C@H]1CN(c2ccc(C3CCS(=O)(=O)CC3)c(F)c2)C(=O)O1 | MIC | UC 30063 | 2 µg/mL
CC[C@H]1OC(=O)[C@H](C)[C@@H](O[C@H]2C[C@@](C)(OC)[C@@H](O)[C@H](C)O2)[C@H](C)[C@@H](O[C@H]2O[C@@H](C)C[C@@H](N(C)C)[C@@H]2O)[C@](C)(O)C[C@@H](C)C(=O)[C@H](C)[C@@H](O)[C@]1(C)O | MIC | 33929 (ampicillin-resistant) | 4 µg/mL
CC(=O)NC[C@H]1CN(c2ccc(-c3cccs3)c(F)c2)C(=O)O1 | MIC | UC 30063 | 8 µg/mL
CC[C@H]1OC(=O)[C@H](C)C(=O)[C@H](C)[C@@H](O[C@@H]2O[C@H](C)C[C@H](N(C)C)[C@H]2O)[C@@]2(C)C[C@@H](C)C(=NC(C)=O)[C@H](C)[C@@H](OC/C(=N\Oc3ccc(-c4nnc(N)s4)cc3)CO2)[C@]1(C)O | MIC | 33929 (ampicillin-resistant) | 4 µg/mL
CC(=O)NC[C@H]1CN(c2ccc(-c3cnn(C(c4ccccc4)(c4ccccc4)c4ccccc4)c3)c(F)c2)C(=O)O1 | MIC | UC 30063 | >32 µg/mL
C[C@@H]1O[C@@H]1P(=O)(O)O | MIC | ATCC31517 | 4 µg/mL
CC(=O)NC[C@H]1CN(c2ccc(-c3ccnn3C)c(F)c2)C(=O)O1 | MIC | UC 30063 | 8 µg/mL
CC[C@H]1OC(=O)C[C@@H](O)[C@H](C)[C@@H](O[C@@H]2O[C@H](C)[C@@H](O)[C@H](N(C)C)[C@H]2O)C(C=O)C[C@@H](C)C(=O)/C=C/C(C)=C/[C@@H]1COCOCc1ccccc1 | MIC | 33929 (ampicillin-resistant) | 4 µg/mL
CC[C@H]1OC(=O)[C@H](C)C(=O)[C@H](C)[C@@H](O[C@@H]2O[C@H](C)C[C@H](N(C)C)[C@H]2O)[C@@]2(C)C[C@@H](C)C(=NC(C)=O)[C@H](C)[C@@H](OC/C(=N\Oc3ccc(-c4nccs4)nc3)CO2)[C@]1(C)O | MIC | 33929 (ampicillin-resistant) | 4 µg/mL
CC(=O)NC[C@H]1CN(c2ccc(-c3nsc(C#N)n3)c(F)c2)C(=O)O1 | MIC | UC 30063 | >16 µg/mL
CC[C@H]1OC(=O)[C@H](C)C(=O)[C@H](C)[C@@H](O[C@@H]2O[C@H](C)C[C@H](N(C)C)[C@H]2O)[C@@]2(C)C[C@@H](C)C(=NC(C)=O)[C@H](C)C(OC/C(=N\OCC#Cc3cccc(N)n3)CO2)[C@]1(C)O | MIC | 33929 (ampicillin-resistant) | 4 µg/mL
CC[C@H]1OC(=O)[C@@](C)(F)C(=O)[C@H](C)[C@@H](O[C@@H]2O[C@H](C)C[C@H](N(C)C)[C@H]2O)[C@@]2(C)C[C@@H](C)C(=NC(C)=O)[C@H](C)[C@@H](OC/C(=N\OCc3ccc(N)nc3)CO2)[C@]1(C)O | MIC | 33929 (ampicillin-resistant) | 2 µg/mL
CC[C@H]1OC(=O)[C@H](C)C(=O)[C@H](C)[C@@H](O[C@@H]2O[C@H](C)C[C@H](N(C)C)[C@H]2O)[C@](C)(OC)C[C@@H](C)C(=O)[C@H](C)[C@H]2N(CCCCn3cnc(-c4cccnc4)c3)C(=O)O[C@]12C | MIC50 | 25 strains | 0.125 µg/mL
CC[C@H]1OC(=O)[C@H](C)[C@@H](O[C@H]2C[C@@](C)(OC)[C@@H](O)[C@H](C)O2)[C@H](C)[C@@H](O[C@H]2O[C@@H](C)C[C@@H](N(C)C)[C@@H]2O)[C@](C)(O)C[C@@H](C)C(=O)[C@H](C)[C@@H](O)[C@]1(C)O | MIC | 33929 (ampicillin-resistant) | 4 µg/mL
CC(=O)NC[C@H]1CN(c2ccc(C3CCS(=O)(=O)CC3)c(F)c2)C(=O)O1 | MIC | UC 30063 | 2–4 µg/mL

For reference, 3 entries again:

compound	read-out	strain or isolate	result
CC[C@H]1OC(=O)C[C@@H](O)[C@H](C)[C@@H](O[C@@H]2O[C@H](C)[C@@H](O)[C@H](N(C)C)[C@H]2O)C(C=O)C[C@@H](C)C(=O)/C=C/C(C)=C/[C@@H]1COC(=O)NCc1ccccc1	MIC	33929 (ampicillin-resistant)	1 µg/mL
CC[C@H]1OC(=O)[C@@](C)(F)C(=O)[C@H](C)[C@@H](O[C@@H]2O[C@H](C)C[C@H](N(C)C)[C@H]2O)[C@@]2(C)C[C@@H](C)C(=NC(C)=O)[C@H](C)[C@@H](OC/C(=N\OCc3ccc(N)nc3)CO2)[C@]1(C)O	MIC	33929 (ampicillin-resistant)	2 µg/mL
CC(=O)NC[C@H]1CN(c2ccc(-c3nsc(C#N)n3)c(F)c2)C(=O)O1	MIC	UC 30063	>16 µg/mL

a–b is a range or a potency band. MIC50, MIC90 and the like: level of inhibition, or share of isolates inhibited.